Test system: cell wall
Experiment: Incorporation of radioactive amino acids into the cell wall
Format: cell-based, Bacillus subtilis
Details: 14C-labelled, 10 μCi/ml, 2 h at 37° C.

| Compound | Incorporation into the cell wall (FIG. 3A) | total incorporation into cells |
| --- | --- | --- |
| O=C(O)[C@@H]1CCCN1 [L-proline, reference compound] | but not | 360,000 cpm/ml |
| N[C@H](Cc1ccc(O)cc1)C(=O)O [D-tyrosine] | incorporated into the cell wall | 46,000 cpm/ml |
